Results deposited as PubChem BioAssay AID624099 (ICCB-Longwood, 2012)

Assay: 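Human genes that papillomavirus E2 requires to repress the HPV18 LCR promoter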 (primary screen)
Cells: human C33A cervical carcinoma cells (HPV-negative) stably expressing BPV1 E2 and an HPV18 LCR luciferase reporter
Reagent: siRNA pool against human genes, 40 nM
Time to read-out: 72 h
Detection: 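Per-well luciferase luminescence, z-scored on each plate against the plate mean and SD with control wells left out, then averaged across three replicate plates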
Scale: mean z-score and z-score: higher = stronger reporter signal, weaker E2 silencing
Call rule: 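Hit if mean z-score reaches 2 and two or more of three replicate z-scores also reach 2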
The whole screen tested about 21,000 reagents; below is an unselected part. 497 of all reagents (2.4%) count as active. 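Higher z means weaker E2 silencing; only reporter increases were scored, and knock-downs that hurt cell survival may mask genuine repressor factors.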 Reagent sequences are not shown.

PEX26 (peroxisomal biogenesis factor 26)
- mean z-score: -0.19
- z-score, replicate A: 0.06
- z-score, replicate B: -0.44
- z-score, replicate C: -0.19
- Outcome: inactive

ADAMTS5 (ADAM metallopeptidase with thrombospondin type 1 motif 5)
- mean z-score: 1.3
- z-score, replicate A: 1.31
- z-score, replicate B: 1.08
- z-score, replicate C: 1.52
- Outcome: inactive

FOSL1 (FOS like 1, AP-1 transcription factor subunit)
- mean z-score: 2.65
- z-score, replicate A: 3.03
- z-score, replicate B: 2.56
- z-score, replicate C: 2.37
- Outcome: active

TKT (transketolase)
- mean z-score: 2.7
- z-score, replicate A: 2.98
- z-score, replicate B: 2.46
- z-score, replicate C: 2.66
- Outcome: active

EHD3 (EH domain containing 3)
- mean z-score: -0.01
- z-score, replicate A: 0.46
- z-score, replicate B: -0.17
- z-score, replicate C: -0.32
- Outcome: inactive

NPPA (natriuretic peptide A)
- mean z-score: 0.62
- z-score, replicate A: 0.75
- z-score, replicate B: 0.74
- z-score, replicate C: 0.38
- Outcome: inactive

ACOT6 (acyl-CoA thioesterase 6)
- mean z-score: -0.03
- z-score, replicate A: -0.08
- z-score, replicate B: 0.21
- z-score, replicate C: -0.21
- Outcome: inactive

UST (uronyl 2-sulfotransferase)
- mean z-score: -1.5
- z-score, replicate A: -1.55
- z-score, replicate B: -1.49
- z-score, replicate C: -1.45
- Outcome: inactive

STRA8 (stimulated by retinoic acid 8)
- mean z-score: 0.98
- z-score, replicate A: 1.12
- z-score, replicate B: 1.16
- z-score, replicate C: 0.67
- Outcome: inactive

PDZRN3 (PDZ domain containing ring finger 3)
- mean z-score: 0.67
- z-score, replicate A: 0.71
- z-score, replicate B: 0.75
- z-score, replicate C: 0.54
- Outcome: inactive

CSF1 (colony stimulating factor 1)
- mean z-score: 0.34
- z-score, replicate A: 0.49
- z-score, replicate B: 0.45
- z-score, replicate C: 0.08
- Outcome: inactive

LRRC3B (leucine rich repeat containing 3B)
- mean z-score: -1.88
- z-score, replicate A: -1.75
- z-score, replicate B: -2.05
- z-score, replicate C: -1.85
- Outcome: inactive

ANP32A (acidic nuclear phosphoprotein 32 family member A)
- mean z-score: -1.31
- z-score, replicate A: -1.46
- z-score, replicate B: -1.28
- z-score, replicate C: -1.21
- Outcome: inactive

MID2 (midline 2)
- mean z-score: -0.28
- z-score, replicate A: -0.57
- z-score, replicate B: -0.05
- z-score, replicate C: -0.22
- Outcome: inactive

SYT8 (synaptotagmin 8)
- mean z-score: 0.93
- z-score, replicate A: 0.74
- z-score, replicate B: 1.08
- z-score, replicate C: 0.98
- Outcome: inactive

WDR5B (WD repeat domain 5B)
- mean z-score: -0.44
- z-score, replicate A: -0.3
- z-score, replicate B: -0.43
- z-score, replicate C: -0.6
- Outcome: inactive

NME9 (NME/NM23 family member 9)
- mean z-score: 0.43
- z-score, replicate A: 0.45
- z-score, replicate B: 0.54
- z-score, replicate C: 0.31
- Outcome: inactive

CYB561 (cytochrome b561)
- mean z-score: 0.8
- z-score, replicate A: 1.63
- z-score, replicate B: 0.37
- z-score, replicate C: 0.41
- Outcome: inactive

MRGPRE (MAS related GPR family member E)
- mean z-score: -0.78
- z-score, replicate A: -0.65
- z-score, replicate B: -0.57
- z-score, replicate C: -1.12
- Outcome: inactive

ZNF836 (zinc finger protein 836)
- mean z-score: 0.14
- z-score, replicate A: 0.17
- z-score, replicate B: 0.18
- z-score, replicate C: 0.06
- Outcome: inactive

ZNF335 (zinc finger protein 335)
- mean z-score: 0.96
- z-score, replicate A: 0.29
- z-score, replicate B: 1.23
- z-score, replicate C: 1.36
- Outcome: inactive

UBE2Q1 (ubiquitin conjugating enzyme E2 Q1)
- mean z-score: -0.89
- z-score, replicate A: -0.54
- z-score, replicate B: -1.18
- z-score, replicate C: -0.95
- Outcome: inactive

FXYD2 (FXYD domain containing ion transport regulator 2)
- mean z-score: -0.47
- z-score, replicate A: -0.42
- z-score, replicate B: -0.33
- z-score, replicate C: -0.67
- Outcome: inactive

FNBP4 (formin binding protein 4)
- mean z-score: -0.65
- z-score, replicate A: -0.73
- z-score, replicate B: -0.62
- z-score, replicate C: -0.62
- Outcome: inactive

MAP3K1 (mitogen-activated protein kinase kinase kinase 1)
- mean z-score: 0.47
- z-score, replicate A: 0.23
- z-score, replicate B: 0.5
- z-score, replicate C: 0.67
- Outcome: inactive

APEX1 (apurinic/apyrimidinic endodeoxyribonuclease 1)
- mean z-score: -0.84
- z-score, replicate A: -1.05
- z-score, replicate B: -0.57
- z-score, replicate C: -0.88
- Outcome: inactive

LOC389888 (retired record)
- mean z-score: 0.07
- z-score, replicate A: 0.53
- z-score, replicate B: -0.23
- z-score, replicate C: -0.1
- Outcome: inactive

Entries above whose target name starts with S or s:
STRA8 (stimulated by retinoic acid 8)
- mean z-score: 0.98
- z-score, replicate A: 1.12
- z-score, replicate B: 1.16
- z-score, replicate C: 0.67
- Outcome: inactive

SYT8 (synaptotagmin 8)
- mean z-score: 0.93
- z-score, replicate A: 0.74
- z-score, replicate B: 1.08
- z-score, replicate C: 0.98
- Outcome: inactive
